Results from patent US20160264649A1.

B1: 5345_I01 (PGT-137) (antibody, V domains shown)
VH: EVHLEESGPGLVRPSETLSLTCTASGGSIRGGEWGDSDYHWGWVRHSPEKGLEWIGSIHWRGTTHYNAPFRGRGRLSIDLSRNQFSLRLTSVTAEDTAVYYCVKHKYHDIVMVVPIAGWFDPWGQGLQVTVSS
VL: EIMMTQSPAILSVSPGDRATLSCRASQSVKNNLAWYQKRPGQAPRLLIFDTSSRASGIPARFSGGGSGTEFTLTVNSMQSEDFATYYCQQYEEWPRTFGQGTKVEIK
B2: 4995_P16 (PGT-145) (antibody, V domains shown)
VH: QVQLVQSGAEVKKPGSSVKVSCKASGNSFSNHDVHWVRQATGQGLEWMGWMSHEGDKTGLAQKFQGRVTITRDSGASTVYMELRGLTADDTAIYYCLTGSKHRLRDYFLYNEYGPNYEEWGDYLATLDVWGHGTAVTVSS
VL: EVVITQSPLFLPVTPGEAASLSCKCSHSLQHSTGANYLAWYLQRPGQTPRLLIHLATHRASGVPDRFSGSGSGTDFTLKISRVESDDVGTYYCMQGLHSPWTFGQGTKVEIK

These binders were tested against HIV-1 Env of the clade A viruses (n=26) of the cross-clade 162-pseudovirus panel (assay: cell-based or functional assay).

Row | Binder | Median IC50 (µg/ml) against all viruses [µg/mL] | Median IC50 (µg/ml) against viruses neutralized with an IC50 <50 µg/ml [µg/mL] | Percent viruses neutralized with an IC50 <50 µg/ml [%]
1 | B1 | 50 | 0.72 | 23
2 | B2 | 1.16 | 0.4 | 81

Each binder was assayed against HIV-1 Env of the clade B viruses (n=31) of the cross-clade 162-pseudovirus panel (assay: cell-based or functional assay).

Row | Binder | Median IC50 (µg/ml) against all viruses [µg/mL] | Median IC50 (µg/ml) against viruses neutralized with an IC50 <50 µg/ml [µg/mL] | Percent viruses neutralized with an IC50 <50 µg/ml [%]
3 | B1 | 50 | 8.55 | 19
4 | B2 | 0.34 | 0.09 | 77

These binders were tested against HIV-1 Env of all viruses (n=162) of the cross-clade 162-pseudovirus panel (assay: cell-based or functional assay).

Row | Binder | Median IC50 (µg/ml) against viruses neutralized with an IC50 <50 µg/ml [µg/mL] | Percent viruses neutralized with an IC50 <50 µg/ml [%]
5 | B1 | 3.48 | 22
6 | B2 | 0.29 | 78

What follows are binders tested against HIV-1 Env of the clade G pseudoviruses of the cross-clade 162-pseudovirus panel (n = 15) (assay: cell-based or functional assay).

Row | Binder | Median IC50 (µg/ml) against all viruses [µg/mL]
7 | B1 | > 50
8 | B2 | 9.93

Each binder was assayed against HIV-1 Env of the clade AE viruses (n=10) of the cross-clade 162-pseudovirus panel (assay: cell-based or functional assay).

Row | Binder | Percent viruses neutralized with an IC50 <50 µg/ml [%] | Median IC50 (µg/ml) against viruses neutralized with an IC50 <50 µg/ml [µg/mL]
9 | B1 | 0 | –
10 | B2 | 90 | 0.97

What follows are binders tested against HIV-1 Env of the clade D pseudoviruses of the cross-clade 162-pseudovirus panel (n = 25) (assay: cell-based or functional assay).

Row | Binder | Median IC50 (µg/ml) against all viruses [µg/mL]
11 | B1 | > 50

What follows are binders tested against HIV-1 Env of the clade AG viruses (n=10) of the cross-clade 162-pseudovirus panel (assay: cell-based or functional assay).

Row | Binder | Median IC50 (µg/ml) against viruses neutralized with an IC50 <50 µg/ml [µg/mL] | Percent viruses neutralized with an IC50 <50 µg/ml [%]
12 | B1 | 28.3 | 10
13 | B2 | 0.16 | 70

Each binder was assayed against HIV-1 Env of the clade G viruses (n=15) of the cross-clade 162-pseudovirus panel (assay: cell-based or functional assay).

Row | Binder | Median IC50 (µg/ml) against viruses neutralized with an IC50 <50 µg/ml [µg/mL] | Percent viruses neutralized with an IC50 <50 µg/ml [%]
14 | B1 | 0.23 | 33
15 | B2 | 0.11 | 80

These binders were tested against HIV-1 Env of the clade C viruses (n=27) of the cross-clade 162-pseudovirus panel (assay: cell-based or functional assay).

Row | Binder | Median IC50 (µg/ml) against all viruses [µg/mL] | Median IC50 (µg/ml) against viruses neutralized with an IC50 <50 µg/ml [µg/mL] | Percent viruses neutralized with an IC50 <50 µg/ml [%]
16 | B1 | 50 | 0.23 | 33
17 | B2 | 0.49 | 0.14 | 70

These binders were tested against HIV-1 Env of the 162-pseudovirus panel representing all major circulating HIV-1 subtypes (HIV-1) (assay: cell-based or functional assay).

Row | Binder | Median IC50 (µg/ml) against viruses neutralized with an IC50 <50 µg/ml [µg/mL] | Percent viruses neutralized, IC50 < 0.1 µg/ml [%] | Percent viruses neutralized, IC50 < 1 µg/ml [%] | Percent viruses neutralized, IC50 < 50 µg/ml [%]
18 | B1 | 3.46 | 4 | 8 | 22
19 | B2 | 0.29 | 27 | 52 | 78

What follows are binders tested against HIV-1 Env of the clade F viruses (n=15) of the cross-clade 162-pseudovirus panel (assay: cell-based or functional assay).

Row | Binder | Median IC50 (µg/ml) against all viruses [µg/mL] | Median IC50 (µg/ml) against viruses neutralized with an IC50 <50 µg/ml [µg/mL] | Percent viruses neutralized with an IC50 <50 µg/ml [%]
20 | B1 | 50 | 6.23 | 20
21 | B2 | 0.82 | 0.82 | 100

The binders below were run against HIV-1 Env of the clade AE pseudoviruses of the cross-clade 162-pseudovirus panel (n = 10) (assay: cell-based or functional assay).

Row | Binder | Median IC50 (µg/ml) against all viruses [µg/mL]
22 | B1 | > 50
23 | B2 | 39.4

The binders below were run against HIV-1 Env of the clade C pseudoviruses of the cross-clade 162-pseudovirus panel (n = 27) (assay: cell-based or functional assay).

Row | Binder | Median IC50 (µg/ml) against all viruses [µg/mL]
24 | B2 | 30.6

These binders were tested against HIV-1 Env of the clade AG pseudoviruses of the cross-clade 162-pseudovirus panel (n = 10) (assay: cell-based or functional assay).

Row | Binder | Median IC50 (µg/ml) against all viruses [µg/mL]
25 | B1 | > 50
26 | B2 | 35.4

Each binder was assayed against HIV-1 Env of the clade D viruses (n=25) of the cross-clade 162-pseudovirus panel (assay: cell-based or functional assay).

Row | Binder | Median IC50 (µg/ml) against all viruses [µg/mL] | Median IC50 (µg/ml) against viruses neutralized with an IC50 <50 µg/ml [µg/mL] | Percent viruses neutralized with an IC50 <50 µg/ml [%]
27 | B1 | 50 | 6.3 | 12
28 | B2 | 10 | 1.07 | 72

These binders were tested against HIV-1 Env of the clade F pseudoviruses of the cross-clade 162-pseudovirus panel (n = 15) (assay: cell-based or functional assay).

Row | Binder | Median IC50 (µg/ml) against all viruses [µg/mL]
29 | B1 | > 50
30 | B2 | 16.3

The binders below were run against HIV-1 Env of all pseudoviruses of the cross-clade 162-pseudovirus panel (n = 162) (assay: cell-based or functional assay).

Row | Binder | Median IC50 (µg/ml) against all viruses [µg/mL]
31 | B1 | > 50
32 | B2 | 31.2
